The list shows a part of the results. Env chains of viruses from a treatment-interruption trial, translated from the printed DNA. IC50 / IC80 of two broadly neutralizing antibodies; lower = more sensitive virus; >50 µg/ml means not reached and <0.001 µg/ml is below the lowest dose. No active / inactive call.
Legend:
antibody 10-1074 [1] = test: neutralization IC50; higher = virus less sensitive to the antibody
Description: (§1)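 Pseudovirus bearing the Env chain mixed with antibody, from 50 µg/ml in fivefold dilutions, on TZM-bl reporter cells, in duplicate.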

antibody 3BNC117 [2] = test: as above
Description: as §1

antibody 10-1074 [3] = test: neutralization IC80; higher = virus less sensitive to the antibody
Description: as §1

antibody 3BNC117 [4] = test: as above
Description: as §1

Binder | neutralization IC50 (antibody 10-1074 [1]) [µg/mL] | neutralization IC50 (antibody 3BNC117 [2]) [µg/mL] | neutralization IC80 (antibody 10-1074 [3]) [µg/mL] | neutralization IC80 (antibody 3BNC117 [4]) [µg/mL]
HIV-1 Env, rebound clone, antibody arm (protein) MKVKGTKRNYQHLWRWGIMLLGILMICSAADKFWVTVYYGVPVWKEASTTLFCASDAKAYDTEVHNVWATHACVPTDPNPQEIFLENVTEDFNMWENNMVEQMHEDVISLWDQSLKPCVKLTPLCVTLNCTDLKNVTESGNATATGGNNNRTVENEGEIKNCSFNITTSIRDKVTKEYALFNALDVVPIEDSNDNSSNGGNYSSYRMIHCNTSTITQACPKVSFEPIPIHYCTPAGFAILKCNNNTFSGKGPCNNVSTVQCTHGIRPVVSTQLLLNGSLAEEEIVIRSKNFSQNTDIIIVQLNESVIINCTRPNNNTRRGVHIGPGRAFYATGDIIGDIRRAYCNISRAEWNKTLGRVAEKLREQFPNKTIVFNQSSGGDPEIATHSFNCGGEFFYCYTSKLFNSTWNDTEGKVEEGDGNITFPCRIKQIINLWQEVGKAMYAPPISGIIKCESNITGLLLTRDGGNDNNTNEIFRPWGGNMKDNWRSELYKYKVVKIEPIGVAPTKAKRRVVQREKRAVGALGAMFLGFLGAAGSTMGAASLTLTVQARLLLSGIVQQQNNLLRAIEAQQHMLQLTDWGIKQLQARVLAVERYLRDQQLLGIWGCSGKLICTTAVPWNDSWSNNKTYDDIWENMTWMAWEKEIDNYTGIIYNLLEISQNQQEKNEQELLELDKWASLWNWVDITHWLWYIKIFIMIVGGLIGLRIVFTVLSIINRVRQGYSPLSFQTHLLTSRGPDRPEGIEEEGGEQDRGRSIRLVDGFLALFWDDLRSLCLFSYHRLRDLLLIAARIVELLGRRGWGILKYWWSLLQYWSQELNKSAISLLNATAIAVAEGTDRIIEVVQRAGRAILHIPVRIRQGLERALQ | 0.226 | > 50 | 1.21 | > 50
HIV-1 Env, rebound clone, antibody arm (protein) MRVKGIRRNYQHWWRGDIWRWGMMLLGMLMICSATGSLWVTVYYGVPVWKEATTTLFCASDAKAYDTEAHNVWATHACVPTDPNPQEVPLVNVTENFNMWKNNMVEQMHEDIISLWDQSLKPCVKLTPLCVTLHCTEIGTNATNNSSHNPNPTTNSSTSPTPMGEIKNCSFNVTTNRRDKVQKTYAFFYNMDIKQIAEEDNTSYILTSCNTSVITQACPKVSFEPIPIHYCAPAGFAILKCNDTNFNGTGPCKNVTTVQCTHGIKPVVSTQLLLNGSLARGEVMIRSENISNNAKIIIVQLKEPVEINCTRPNNNTRKSITIGPGRAFFGTDIIGGIRQAHCNISREKWNYTLYQISEKLRSHFVNKTIVFNQSSGGDPEIVMHSFNCGGEFFYCDTSKLFNSTWHTNSTANNTGDNSTITLPCRIKQIVNMWQEVGKAMYAPPIKGPIRCSSKITGVLLTRDGGTNNTNTTETFRPAGGDMRDNWRSELYKYKVVQIEPLGIAPTQAKRRVVQRDKRAVGIGALFLGFLGTAGSTMGAASITLTVQARNLLSGIVQQQNNLLRAIEAQQHLLQLTVWGIKQLQARVLAVESYLKDQQLLGIWGCSGKLICTTAVPWNNSWSNKSLDYIWNNMTWMEWEREIDNYTEYIYDLLEASQNQQEKNEQELLALDKWASLWSWFSITQWLWYIKLFLIIVGGLIGLRIVFAVFSIVNRVRQGYSPLSLQTLLPAQRGPDRPEGIEEEGGEQDRGRSIRLVDGFLALFWDDLRSLCLFSYHRLRDLLLIVTRIVELLGRRGWETLKYCWNLLQYWGQELKKSAVSLFNFSAIAVAEGTDRVIEVVQRIWRAIIHIPRRIRQGLEGALL | 3.1 | 0.053 | > 50 | 0.149
HIV-1 Env, rebound clone, antibody arm (protein) MRVKGIRRNYQHWWRGDIWRWGMMLLGMLMICSATGSLWVTVYYGVPVWKEATTTLFCASDAKAYDTEAHNVWATHACAPTDPNPQEVPLVNVTENFNMWKNNMVEQMHEDIISLWDQSLKPCVKLTPLCVTLHCTEIGTNATNNSSHNPNPTTNSSTSPTPMGEIKNCSFNVTTNRRDKVQKTYAFFYNMDIKQIAEEDNTSYILTSCNTSVITQACPKVSFEPIPIHYCAPAGFAILKCNDTNFNGTGPCKNVTTVQCTHGIKPVVSTQLLLNGSLARGEVMIRSENISNNAKIIIVQLKEPVEINCTRPNNNTRKSITIGPGRAFFGTDIIGGIRQAHCNISREKWNYTLYQISEKLRSHFVNKTIVFNQSSGGDPEIVMHSFNCGGEFFYCDTSKLFNSTWHTNSTANNTGDNSTITLPCRIKQIVNMWQEVGKAMYAPPIKGPIRCSSKITGVLLTRDGGTNNTNTTETFRPAGGDMRDNWRSELYKYKVVQIEPLGIAPTQAKRRVVQRDKRAVGIGALFLGFLGTAGSTMGAASITLTVQARNLLSGIVQQQNNLLRAIEAQQHLLQLTVWGIKQLQARVLAVESYLKDQQLLGIWGCSGKLICTTAVPWNNSWSNKSLDYIWNNMTWMEWEREIDNYTEYIYDLLEASQNQQEKNEQELLALDKWASLWSWFSITQWLWYIKLFLIIVGGLIGLRIVFAVFSIVNRVRQGYSPLSLQTLLPAQRGPDRPEGIEEEGGEQDRGRSIRLVDGFLALFWDDLRSLCLFSYHRLRDLLLIVTRIVELLGRRGWETLKYCWNLLQYWGQELKKSAVSLFNFSAIAVAEGTDRVIEVVQRIWRAIIHIPRRIRQGLEGALL | 7.08 | 0.053 | > 50 | 0.197
